Measurements from paper PMC8815882, “Screening the pandemic response box identified benzimidazole carbamates, Olorofim and ravuconazole as promising drug candidates for the treatment of eumycetoma” (PLoS Neglected Tropical Diseases, 2022).
This is a selection: effects in other tests are not listed, and their absence says nothing.

Tested on: M. mycetomatis genome strain MM55
Assay: CLSI M38-A2 based in vitro susceptibility screening (XTT or resazurin), growth at fixed concentration
Assay type: cell-based, Madurella mycetomatis

CCCn1c(=O)c2c(nc(Cc3ccccc3)n2CCN(CC)CCO)n(CCc2ccc(N)cc2)c1=O
Percentage survival at 25um, 25 uM mean (25 uM, mean of three, M. mycetomatis MM55): 74.0995%
Percentage survival at 25um, 25 um A (25 uM, replicate A, M. mycetomatis MM55): 94.6375%
Percentage survival at 25um, 25 uM B (25 uM, replicate B, M. mycetomatis MM55): 54.6912%
Percentage survival at 25um, 25 uM C (25 uM, replicate C, M. mycetomatis MM55): 72.9699%
Percentage survival at 100um, 100 uM mean (100 uM, mean of three, M. mycetomatis MM55): 51.2803%
Percentage survival at 100um, 100 uM A (first replicate column) (100 uM, replicate 1, M. mycetomatis MM55): 0.9033%
Percentage survival at 100um, 100 uM A (second replicate column) (100 uM, replicate 2, M. mycetomatis MM55): 68.7428%
Percentage survival at 100um, 100 uM A (third replicate column) (100 uM, replicate 3, M. mycetomatis MM55): 84.195%
